Anti-infective test results gathered from many reports (values: NIAID ChemDB through PubChem).

Common to all: host cell toxicity; cell line: MT-4; endpoint: CC50

Neighbouring rows are from separate reports. CCn is the concentration with n% toxicity to the cells.

smiles	value
CNC(=O)c1cnnn1[C@@H]1O[C@H](CO[Si](C)(C)C(C)(C)C)C2(OS(=O)(=O)C=C2N)[C@H]1O[Si](C)(C)C(C)(C)C	28 µM
C=CC(C)(C)c1cc2c(cc1O)O[C@H](c1cc(O)c(O)c(CC=C(C)C)c1CC=C(C)C)CC2	9 µg/mL
CC(=O)O[C@@H]1[C@H](OC(=O)C23CCC(C)(C(=O)O2)C3(C)C)c2c(ccc3c(=O)cc(C)oc23)OC1(C)C	>40.2 µM
COC(=O)CNP(=O)(OC[C@H]1O[C@@H](n2cc(C)c(=O)[nH]c2=O)C[C@@H]1N=[N+]=[N-])Oc1ccccc1	>500 µM
S=C(NCCc1ccccc1)Nc1ccc(Br)cn1	271 µM
Cc1cn([C@@H]2C=CC3(CO)C[C@@H]23)c(=O)[nH]c1=O	100 µg/mL
CC(C)=CCc1cc([C@@H]2CC(=O)c3c(O)cc(O)cc3O2)c(CC=C(C)C)c(O)c1O	29 µg/mL
Fc1cccc(F)c1[C@H]1SCc2nc3ccccc3n21	38.1 µM
CC1(C)S[C@H]([C@H](NC(=O)Cc2ccccc2)C(=O)NCc2ccccc2)N[C@H]1C(=O)NCCCNC(=O)[C@@H]1N[C@@H]([C@H](NC(=O)Cc2ccccc2)C(=O)NCc2ccccc2)SC1(C)C	≥100 µM
C1CNCCCN(CCCN2CCNCCC[N+](CCCN3CCCNCCCNCCC3)(CCCN3CCCNCCCNCCC3)CCCNCC2)CCCNC1	298 µM
Cc1cc(=O)oc2c3c(ccc12)OC(C)(C)[C@H](OC(=O)C12CCC(C)(C(=O)O1)C2(C)C)[C@@H]3OC(=O)C12CCC(C)(C(=O)O1)C2(C)C	>15.7 µM
Cc1c([C@H](C)c2c(F)cccc2F)nc(SC2CCCC2)[nH]c1=O	>200 µM
CC(C)(C)[Si](C)(C)OC[C@H]1O[C@@H](n2cnc3[nH]c(=O)[nH]c(=O)c32)[C@H](O[Si](C)(C)C(C)(C)C)C12OS(=O)(=O)C=C2N	7.7 µg/mL
C1CNCCNCCCN[C@@H]([C@H]2CNCCCNCCNCCCN2)CNC1	172 µg/mL
COc1ccc(-c2coc3cc(O)ccc3c2=O)cc1	>100 µg/mL
Cc1cn([C@H]2C[C@H](N=[N+]=[N-])[C@@H](CO)O2)c(=O)[nH]c1=O	6 µM
COc1ccc(-c2coc3cc(O)c(CC=C(C)C)c(O)c3c2=O)cc1O	>100 µg/mL
C1CCNCCCNCCCN(CCCN2CCCNCCCNCCCCNCCCNCCCCNCCCNCCC2)CCCNCCCNCCCCNCCCNC1	83 µM
Fc1cccc(F)c1CCNC(=S)Nc1nccs1	84 µM
C1CCNCCCN(CCC[N+]2(CCCN3CCCNCCCCNCCCNCCCNCCCNCCCCNCCC3)CCCNCCCCNCCCNCCCNCCCNCCCCNCCC2)CCCNCCCCNCCCNCCCNCCCNC1	6.9 µM
N#CCN1C(=O)N(Cc2ccccc2)S(=O)(=O)c2cscc21	504 µM
Cc1cc(=O)c2ccc3c(c2o1)[C@@H](OC(=O)C12CCC(C)(C(=O)O1)C2(C)C)[C@@H](OC(=O)C(C)C)C(C)(C)O3	17.1 µM
N#CCN1C(=O)N(Cc2cccc(F)c2)S(=O)(=O)c2cscc21	129 µM
Fc1cccc(F)c1C1SCc2nc3ccccc3n21	48.6 µM
Cc1oc2c3c(ccc2c(=O)c1C)OC(C)(C)[C@H](OC(=O)C12CCC(C)(C(=O)O1)C2(C)C)[C@@H]3OC(=O)C12CCC(C)(C(=O)O1)C2(C)C	4.72 µM
Cn1cnc2c(ncn2[C@@H]2O[C@H](CO[Si](C)(C)C(C)(C)C)C3(OS(=O)(=O)C=C3N)[C@H]2O[Si](C)(C)C(C)(C)C)c1=O	>100 µg/mL
CCc1cc(=O)c2ccc3c(c2o1)[C@@H](OC(=O)C12CCC(C)(C(=O)O1)C2(C)C)[C@@H](OC(=O)C(C)C)C(C)(C)O3	>18.5 µM
Cc1cn([C@H]2C[C@H](N=[N+]=[N-])[C@@H](CO)O2)c(=O)[nH]c1=O	247 µM
COc1cccc(F)c1CCNC(=S)Nc1nccs1	48 µM
Nc1ncnc2c1ncn2[C@@H]1O[C@H](CO)[C@H]1CO	>30 µM
CCN1C(=O)N(Cc2ccccc2)S(=O)(=O)c2cscc21	512 µM
C(CCC1CNCCNCCCNCCNC1)CCC1CNCCNCCCNCCNC1	140 µM
Nc1ncnc2c1ncn2[C@H]1CC[C@@H](CO)O1	1580 µM
CC(C)(C)NC(=O)[C@@H]1C[C@@H]2CCCC[C@@H]2CN1C[C@H](O)CNC(=O)[C@@H]1N[C@@H]([C@H](NC(=O)Cc2ccccc2)C(N)=O)SC1(C)C	>100 µM
CC(C)(C)[Si](C)(C)OC[C@H]1O[C@@H](n2cnc3c(N)ncnc32)[C@H](O[Si](C)(C)C(C)(C)C)C12OS(=O)(=O)C=C2N	8.3 µg/mL
Cc1cn([C@H]2C[C@H](N=[N+]=[N-])[C@@H](CO)O2)c(=O)[nH]c1=O	72 µM
COc1ccc(OC)c(CCNC(=S)Nc2nccs2)c1	309 µM
C1CNCCCN(CCC[N+]2(CCCN3CCCNCCCNCCC3)CCCNCCCNCCC2)CCCNC1	470 µM
C1CNCCNCC(CCCC2CNCCNCCCNCCNC2)CNCCNC1	290 µM
CN(C)c1ccc(CNC(=O)[C@@H](NC(=O)Cc2ccccc2)[C@@H]2N[C@@H](C(=O)NC[C@@H](O)CN3C[C@H]4CCCC[C@H]4C[C@H]3C(=O)NC(C)(C)C)C(C)(C)S2)cc1	>100 µM
Cc1cc(=O)c2ccc3c(c2o1)[C@@H](OC(=O)C12CCC(C)(C(=O)O1)C2(C)C)[C@@H](OC(=O)CC(C)C)C(C)(C)O3	13 µM
C1CCNCCCNCCCNCCCN(CCC[N+]2(CCCN3CCCNCCCNCCCNCCCCNCCCNCCCNCCC3)CCCNCCCNCCCNCCCCNCCCNCCCNCCC2)CCCNCCCNCCCNC1	8.6 µM
O=C1CCNCCNCCCNCCN1	280 µM
CCc1cc(=O)c2ccc3c(c2o1)[C@@H](OC(=O)C12CCC(C)(C(=O)O1)C2(C)C)[C@@H](OC(=O)C12CCC(C)(C(=O)O1)C2(C)C)C(C)(C)O3	43.08 µM
C1CCNCCCNCCCN(CCCN2CCCNCCCNCCC2)CCCNCCCNC1	493 µM
S=C(NCCc1ccccn1)Nc1ccc(Cl)cn1	68 µM
Cc1cn([C@H]2C[C@H](N=[N+]=[N-])[C@@H](CO)O2)c(=O)[nH]c1=O	>37.5 µM
CC(C)(C)[Si](C)(C)OC[C@H]1O[C@@H](n2cnc3c(=O)[nH]cnc32)[C@H](O[Si](C)(C)C(C)(C)C)C12OS(=O)(=O)C=C2N	7.8 µg/mL
CCc1csc(NC(=S)NCCc2ccccn2)n1	103 µM

For reference, 4 entries again:

{"smiles": "C1CCNCCCNCCCNCCCN(CCC[N+]2(CCCN3CCCNCCCNCCCNCCCCNCCCNCCCNCCC3)CCCNCCCNCCCNCCCCNCCCNCCCNCCC2)CCCNCCCNCCCNC1", "value": "8.6 µM"}
{"smiles": "C1CNCCCN(CCC[N+]2(CCCN3CCCNCCCNCCC3)CCCNCCCNCCC2)CCCNC1", "value": "470 µM"}
{"smiles": "C1CNCCNCCCN[C@@H]([C@H]2CNCCCNCCNCCCN2)CNC1", "value": "172 µg/mL"}
{"smiles": "Cc1cn([C@H]2C[C@H](N=[N+]=[N-])[C@@H](CO)O2)c(=O)[nH]c1=O", "value": "72 µM"}